A mixed list of measured activities; the numbers were collected in NIAID ChemDB.

Common to all: tests in culture; organism: Aspergillus flavus

MIC50, MIC90 and the like: level of inhibition, or share of isolates inhibited. Two numbers with a dash give a range or band. An empty or dashed field is not shown. Rows are shuffled and stem from different studies.

SMILES | measure | strain or isolate | read by | value
CCCCCOc1ccc(-c2ccc(-c3ccc(C(=O)N[C@H]4C[C@@H](O)[C@@H](O)NC(=O)[C@@H]5[C@@H](O)[C@@H](C)CN5C(=O)[C@H]([C@H](C)O)NC(=O)[C@H]([C@H](O)[C@@H](O)c5ccc(O)cc5)NC(=O)[C@@H]5C[C@@H](O)CN5C(=O)[C@H]([C@H](C)O)NC4=O)cc3)cc2)cc1 | MIC90 | - | - | 0.015–8 µg/mL
CC(=O)N/N=C/c1cnc[nH]1 | MIC50 | - | broth dilution | 1643 µM
CC[C@@H]([C@H](C)O)n1ncn(-c2ccc(N3CCN(c4ccc(OC[C@@H]5CO[C@@](Cn6cncn6)(c6ccc(F)cc6F)C5)cc4)CC3)cc2)c1=O | MIC50 | - | - | 0.125–0.25 µg/mL
CN(C)C1=NC(=O)/C(=C/c2ccc(F)cc2)S1 | MIC100 | ATCC 9170 | broth dilution | >250 µg/mL
C[C@@H]1[C@H](O)[C@@H](C)/C=C/C=C/CC/C=C/C=C/C=C/C=C/C(O[C@H]2O[C@H](C)[C@@H](O)[C@H](N)[C@@H]2O)CC2O[C@](O)(CC(O)C(O)CCC(O)CC(O)CC(O)CC(=O)O[C@H]1C)CC(O)C2C(=O)O | MIC50 | - | broth dilution | >269 µM
CC(=O)N1CCN(c2ccc(OC[C@H]3CO[C@](Cn4ccnc4)(c4ccc(Cl)cc4Cl)O3)cc2)CC1 | MIC100 | ATCC 9170 | broth dilution | 0.5 µg/mL
Clc1ccc([Se][Se]c2ccc(Cl)cc2)cc1 | MIC | - | broth dilution | >64 µg/mL
O=C(O)/C=C/c1ccc(O)c(O)c1 | MIC50 | - | agar | >1000 µg/mL
CC(O)CCCNc1cnc2ccccc2c1 | MIC50 | - | turbidity | 31.3 µg/mL
C[C@H]1[C@H](O)[C@@H](C)/C=C/C=C/C=C/C=C/C=C/C=C/C=C/[C@H](O[C@@H]2O[C@H](C)[C@@H](O)[C@H](N)[C@@H]2O)C[C@@H]2O[C@](O)(C[C@@H](O)C[C@@H](O)CC[C@H](O)[C@@H](O)C[C@@H](O)CC(=O)O[C@H]1C)C[C@H](O)[C@H]2C(=O)O | MIC | ITCC 1634 | broth dilution | 0.97 µg/mL
CN(C)C1=NC(=O)/C(=C/c2ccc(Cl)cc2)S1 | MIC100 | ATCC 9170 | broth dilution | >250 µg/mL
C[C@@H]1[C@H](O)[C@@H](C)/C=C/C=C/CC/C=C/C=C/C=C/C=C/C(O[C@H]2O[C@H](C)[C@@H](O)[C@H](N)[C@@H]2O)CC2O[C@](O)(CC(O)C(O)CCC(O)CC(O)CC(O)CC(=O)O[C@H]1C)CC(O)C2C(=O)O | MIC | - | agar diffusion | 8 µg/mL
CCc1ccc(O)cc1 | MIC100 | - | agar | 207 µg/mL
CC(=O)N/N=C(\C)c1ccc(-n2ccnc2)cc1 | MIC50 | - | broth dilution | >1030 µM
CC(C)=CCC/C(C)=C/CO | MIC | NRRL 501 | broth dilution | 144 µg/mL
FC(F)(F)c1cccc([Se][Se]c2cccc(C(F)(F)F)c2)c1 | MFC | - | broth dilution | >64 µg/mL
OC(Cn1cncn1)(Cn1cncn1)c1ccc(F)cc1F | MFC100 | CCAM 080001 | broth dilution | 5 µg/mL
O=C/C=C/c1ccccc1 | MFC | NRRL 501 | broth dilution | 160 µg/mL
COc1cccc(C=O)c1OC | MIC | NRRL3357 | agar | 3000 µM
C[C@H]1[C@H](O)[C@@H](C)/C=C/C=C/C=C/C=C/C=C/C=C/C=C/[C@H](O[C@@H]2O[C@H](C)[C@@H](O)[C@H](N)[C@@H]2O)C[C@@H]2O[C@](O)(C[C@@H](O)C[C@@H](O)CC[C@H](O)[C@@H](O)C[C@@H](O)CC(=O)O[C@H]1C)C[C@H](O)[C@H]2C(=O)O | MIC | - | - | 0.5–16 µg/mL
S=C(N/N=C/c1cnc[nH]1)Nc1ccccc1 | MIC50 | - | broth dilution | >1020 µM
OCCCCNc1cccc2cccnc12 | MIC50 | - | turbidity | 31.6 µg/mL
COc1cc(C=O)cc(OC)c1 | MIC | NRRL3357 | agar | 1500 µM
C[C@@H](c1nc(-c2ccc(C#N)cc2)cs1)[C@](O)(Cn1cncn1)c1cc(F)ccc1F | MIC | - | - | 0.25–16 µg/mL
COc1ccccc1C=O | MIC | NRRL3357 | agar | 2500 µM
CC(=O)c1ccccc1O | MIC100 | - | agar | 221 µg/mL
CC(C)(O)CCCNc1cccc2cccnc12 | MIC50 | - | turbidity | 15.6 µg/mL
COc1cc(C)ccc1O | MIC50 | - | agar | 267 µg/mL
C[C@@H](c1ncncc1F)[C@](O)(Cn1cncn1)c1ccc(F)cc1F | MIC50 | - | - | 0.5–1 µg/mL

Repeating the first 2 entries:

SMILES | measure | strain or isolate | read by | value
CCCCCOc1ccc(-c2ccc(-c3ccc(C(=O)N[C@H]4C[C@@H](O)[C@@H](O)NC(=O)[C@@H]5[C@@H](O)[C@@H](C)CN5C(=O)[C@H]([C@H](C)O)NC(=O)[C@H]([C@H](O)[C@@H](O)c5ccc(O)cc5)NC(=O)[C@@H]5C[C@@H](O)CN5C(=O)[C@H]([C@H](C)O)NC4=O)cc3)cc2)cc1 | MIC90 | - | - | 0.015–8 µg/mL
CC(=O)N/N=C/c1cnc[nH]1 | MIC50 | - | broth dilution | 1643 µM